# The entries are a selection whose mix differs from that of the whole data set. Activity calls are given as the source filed them.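 How the source made its calls: active means inhibition above the screen-wide mean plus 3 SD (cut at about 13% in these data); inactive means the rest.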
# Tested on: HIV-1 integrase (with human LEDGF/p75)
# Assay: blockers of LEDGF/p75-dependent integrase strand transfer – biochemical, TR-FRET, high throughput, primary screen (AID 743269);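 further: signal is the Cy5 over europium emission ratio at 671 and 618 nm; 0% = plate median of compound wells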
# Conditions: TR-FRET IN-LEDGF/p75 DNA integration, Eu/Cy5; at 3.7 µM; hits give high values
row,SMILES,inhibition
1,CN(C(=O)Cc1ccc(Cl)c(Cl)c1)C1CCCC[C@@H]1N1CCCC1 (some centres undefined),inactive: 1.09%
2,Cc1nn(-c2ccccc2)c2c1P(=O)(N1CCOCC1)N(C)C(c1ccccc1)=N2 (centres undefined),inactive: 1.54%
3,CC1CCC(C(C)C)C(OP(=O)(Nc2ccccn2)c2ccccc2)C1 (centres undefined),inactive: 1.29%
4,Cc1ccc(C(=O)OC2CN3CCC2CC3)cc1 (centres undefined),inactive: -1.02%
5,O=C(/C=C/c1ccccc1)OC1CN2CCC1CC2 (centres undefined),inactive: 5.08%
6,CCCC1OP(=O)(Nc2ccccc2)OCC1CC (centres undefined),inactive: -3.97%
7,CN(C)C1(CNC(=O)c2ccc(S(C)(=O)=O)cc2)CCCCC1,inactive: -4.19%
8,O=P1(Nc2ncccn2)COc2ccccc2OC1,inactive: -0.75%
9,Cc1ccc(S(=O)(=O)N(CCCN)CCCc2c(C)nc(N)[nH]c2=O)cc1,inactive: 1.32%
10,O=P1(Nc2ccc(Br)cn2)COc2ccccc2OC1,inactive: 0.31%
11,NS(=O)(=O)c1cccc(NC(=O)COC(=O)C(O)(c2ccccc2)c2ccccc2)c1,inactive: 0.96%
12,O=[As](O)(c1cccs1)c1cccs1,inactive: -1.86%
13,Cc1ccc(OCC(=O)OC2CN3CCC2CC3)cc1 (centres undefined),inactive: 1.64%
14,Nc1cccc([As](=O)(O)c2ccccc2)c1,inactive: 3.71%
15,CC1CCNP(=O)(N(CCCl)CCCl)O1 (centres undefined),inactive: 3.88%
16,CCOC(=O)Nc1ccc([As](=O)(O)O)c(O)c1,inactive: -5.22%
17,O=C(O)C(O)c1ccc(N(CCCl)CCCl)cc1 (centres undefined),inactive: 3.97%
18,CCCCOc1ccc(C(=O)NCC2(N3CCCCC3)CCCCC2)cc1OC,inactive: 0.16%
19,Cc1cc(SC(NC(=O)c2ccccc2)C(Cl)(Cl)Cl)nc(C(C)C)n1 (centres undefined),inactive: 0.68%
20,COP(=O)(OC)N1CC1c1ccccc1 (centres undefined),inactive: 3.65%
21,CCOC(=O)Nc1cccc([As](=O)(O)O)c1,inactive: 1.91%
22,O=[N+]([O-])c1ccc(Nc2ccc(Oc3ccc([N+](=O)[O-])cc3[N+](=O)[O-])cc2)c([N+](=O)[O-])c1,inactive: -0.5%
23,O=P(Nc1ccccn1)(c1cccc2ccccc12)c1cccc2ccccc12,inactive: -2.89%
24,Cc1cc(SC(NC=O)C(Cl)(Cl)Cl)ncn1 (centres undefined),inactive: -3.54%
25,COP1(=S)c2c(C)nn(CCC#N)c2N=C(c2ccc(F)cc2)N1C (centres undefined),inactive: -1.69%
26,COC(=O)C1(C)COP(=O)(N2CCCC2)OC1 (centres undefined),inactive: 2.16%
27,O=C(COc1ccccc1)OC1CN2CCC1CC2 (centres undefined),inactive: 0.8%

row,SMILES,inhibition
1,O=C(Nc1ccncc1[N+](=O)[O-])c1ccc([N+](=O)[O-])cc1[N+](=O)[O-],inactive: -0.84%
2,O=C(O)C(=O)c1ccc(N(CCCl)CCCl)cc1,inactive: -0.99%
3,CCOC(=O)c1ccc(NC(=O)C(C)(CCl)SC)cc1 (centres undefined),inactive: 4.77%
4,O=C(OC1CN2CCC1CC2)c1cccc([N+](=O)[O-])c1 (centres undefined),inactive: -3.72%
5,CCC(C)N(CC(C)C)C(=S)SC(NC(C)=O)C(Cl)(Cl)Cl (centres undefined),inactive: 1.59%
6,O=C(OC1CN2CCC1CC2)C12CC3CC(CC(C3)C1)C2 (centres undefined),inactive: 0.32%
7,Cc1cc(=O)[nH]c(N[N+](=O)[O-])n1,inactive: 0.41%
8,Cc1c2c(nc3ccccc13)SC(C(Cl)Cl)C2 (centres undefined),inactive: -0.27%
9,COc1ccc2nc(NP(=O)(c3ccccc3)c3ccccc3)sc2c1,inactive: 3.13%
10,COc1cc(I)ccc1[As](=O)(O)O,inactive: 10.1%
11,O=P1(N(CCCl)CCCl)Nc2ccccc2N1,inactive: 2.43%
12,O=P1(N(CCCl)CCCl)OCCCN1CCCl (centres undefined),inactive: -1.93%
13,COc1ccc(N/C(=N/P(=O)(N2CCOCC2)N2CCOCC2)N2CCOCC2)cc1,inactive: -4.08%
14,O=[N+]([O-])c1cc(Oc2ccc([N+](=O)[O-])cc2C(F)(F)F)cc([N+](=O)[O-])c1,inactive: -1.73%
15,O=[As](O)(c1ccc(O)cc1)c1ccccc1O,inactive: 1.39%
16,C[As](=O)(O)c1cccc(C(=O)O)c1,inactive: 0.22%
17,COc1cc(C(=O)NCC2(N3CCOCC3)CCCCC2)ccc1OCC(C)C,inactive: 5.12%
18,O=[N+]([O-])c1ccc(-c2cc([N+](=O)[O-])c(O)c([N+](=O)[O-])c2)cc1,inactive: 7.95%
19,Cc1ccc2nc3c(c(C)c2c1)CC(C(Cl)Cl)S3 (centres undefined),inactive: -1.74%
20,[N-]=[N+]=NC1CCCCC1NC(=O)c1cc([N+](=O)[O-])cc([N+](=O)[O-])c1 (centres undefined),inactive: -3.48%
21,Cc1ccc(OP(=O)(Nc2ccc([N+](=O)[O-])cn2)Oc2ccc(C)cc2)cc1,inactive: -1.89%
22,CC(C)c1ccc(OP(=O)(Nc2ccccn2)Oc2ccccc2F)cc1 (centres undefined),inactive: -5.81%
23,COC(=O)C1(C)COP(=O)(N2CCCCCC2)OC1 (centres undefined),inactive: -2.15%
24,ClCCSc1nnc(-c2cccnc2)o1,inactive: -1.24%
25,O=C(OC1CN2CCC1CC2)c1cccc2[nH]cnc12 (centres undefined),inactive: -2.12%
26,CCN(CC)C(=S)SC(NC=O)C(Cl)(Cl)Cl (centres undefined),inactive: -5.87%
27,CC(C)NC(=O)NP(=O)(Oc1ccccc1)Oc1ccccc1,inactive: -0.23%

# — PubChem BioAssay AID743269 (The Scripps Research Institute Molecular Screening Center, 2014)
